According to patent US12458691:

Tests used:
BG505.DS-SOSIP.Δ611 = experiment: SPR, Fab over 2G12-captured trimer, 1:1 fit
BG505.DS-SOSIP.Δ88 = experiment: SPR, Fab over 2G12-captured trimer, 1:1 fit

Substance VRC34.01 Fab has a Kd (BG505.DS-SOSIP.Δ611) of 0.446 nM and a Kd (BG505.DS-SOSIP.Δ88) of 2 nM.
